Measured values from several laboratories, pooled; numbers as filed in NIAID ChemDB.

All rows: growth or infection tests; agent: HIV-1; measure: EC50

Two numbers with a dash give a range or band.

structure	strain	mutations	cell line	method	result
C[C@@H]1CCO[C@H]2Cn3cc(C(=O)NCc4ccc(F)cc4F)c(=O)c(O)c3C(=O)N12	-	L74M/V75I	TZM-bl	luciferase / luminescence	0.0012 µM
Cc1cc(S(N)(=O)=O)ccc1NC(=O)COc1ccc(Cl)cc1C(=O)c1cccc(C#N)c1	HXB2	RT-V106I	HeLa + HELA CD4+	β-galactosidase	<0.01 µM
O=C(O)C(O)c1ccccc1	X4 clinical isolate	-	CD4+ T-CELLS + CD4	p24	<1 µg/mL
Cc1cc(S(N)(=O)=O)ccc1NC(=O)COc1ccc(Cl)cc1C(=O)c1cc(F)cc(C(F)(F)F)c1	HXB2	RT-L100I	HeLa + HELA CD4+	β-galactosidase	<0.01 µM
O=C(O)C(=O)/C=C(\O)c1cc(Cc2ccccc2)cn(Cc2ccccc2)c1=O	-	-	MAGI	-	2.1 µM
Nc1ccc2nc3ccccc3cc2c1	Latently infected cell	-	ACH2	MTT	>50 µM
Cc1cc(OCCCOc2ccc(-c3cccc(-c4nn[nH]n4)c3)cc2)cnc1CS(=O)c1nc2ccccc2[nH]1	Clinical isolates	-	HEK293T	ELISA	2 µM
CCCc1cc(=O)oc2c3c(c4c(c12)OC(C)(C)CC4)O[C@@H](C)[C@H](C)[C@@H]3O	Diphenyl sulfone-resistant (RT-Y181C)	RT-Y181C	CEM + CEM-SS	XTT	<0.01 µM
Cc1cc(OCc2ccc(-c3cccc(C(=O)O)c3)cc2)cnc1CS(=O)c1nc2ccccc2[nH]1	Clinical isolates	-	HEK293T	ELISA	20 µM
O=C(COc1ccc(Cl)cc1C(=O)c1ccco1)Nc1ccc2cn[nH]c2c1	WTRVA	-	HeLa + HELA CD4+	β-galactosidase	<0.01 µM
Cc1cc(C)cc(Cc2c(I)c(=O)[nH]c(=O)n2COCc2ccccc2)c1	A17	K103N/Y181C	TZM-bl	p24 / ELISA	0.122 µM
Cc1ccc(-n2c(C)nnc2SCC(=O)Nc2ccccc2Br)c2ccccc12	NL4-3	RT-K103N Y181C	HeLa + HeLa-JC53	luciferase	0.014 µM
COC(=O)c1cccc(-c2ccc(OCCCOc3cnc(CS(=O)c4nc5ccccc5[nH]4)c(C)c3)cc2)c1	Clinical isolates	-	HEK293T	ELISA	3.5 µM
Cc1cc2cccc(C)c2c(-n2c(C)nnc2SCC(=O)Nc2ccccc2Br)c1C	NL4-3	RT-Y188L	HeLa + HeLa-JC53	luciferase	0.2 µM
O=C(O)c1cc(-n2cccc2)ccc1Cl	BCF02 R5 GROUP O	-	PBMC + MT-2	p24	5.9 µM
Nc1nccc2c1ncn2[C@@H]1C=C(CO)[C@@H](O)[C@H]1O	-	-	U1	p24	0.02–0.2 µM
Cc1ccc2cccc(C)c2c1-n1c(C)nnc1SCC(=O)Nc1ccccc1Br	NL4-3	RT-Y188L	HeLa + HeLa-JC53	luciferase	0.48 µM
CCCCC/C=C/C=C1/C(=O)CCC1C/C=C\CCCC(=O)O	-	-	U-937	luciferase	3.1 µM
Cc1cc(S(N)(=O)=O)ccc1NC(=O)COc1ccc(Cl)cc1C(=O)c1cc(F)cc(C#N)c1	HXB2 (RT-K103N Y181C) Recombinant	RT-K103N Y181C	HeLa + HELA CD4+	β-galactosidase	<0.01 µM
COCCCOc1cnc(CS(=O)c2nc3ccccc3[nH]2)c(C)c1	Clinical isolates	-	HEK293T	ELISA	15 µM
Cc1ccc(NC(=O)CSc2nnc(C)n2-c2cc(C)c(C)c3ccccc23)c(Cl)c1	NL4-3	RT-Y188L	HeLa + HeLa-JC53	luciferase	0.16 µM
CSC1=NC2(C[C@@H]2c2ccccc2)C(=O)N1C(C)=O	NDK	-	MT-4/C8166 + MT-4	MTT	26 µg/mL
O=C(O)C(=O)/C=C(\O)c1cc(Cc2ccccc2)cn(Cc2ccc(F)c(Cl)c2)c1=O	-	-	MAGI	-	0.8 µM
CC(C)(C)NC(=O)[C@@H]1CCCN1C(=O)[C@@H](O)[C@H](Cc1ccccc1)NC(=O)[C@H](CC(N)=O)NC(=O)OCc1ccccc1	C-2	-	MOLT-4	RT activity	~1 µM
Cc1cc(C#N)cc(C(=O)c2cc(Cl)ccc2OCC(=O)Nc2ccc(S(N)(=O)=O)nc2C)c1	HXB2	RT-L100I	HeLa + HELA CD4+	β-galactosidase	<0.01 µM
CC(=O)OC[C@H]1O[C@@H](SCCOP(=O)(O)OC[C@H]2O[C@@H](n3cc(C)c(=O)[nH]c3=O)C[C@@H]2N=[N+]=[N-])[C@H](OC(C)=O)[C@@H](OC(C)=O)[C@@H]1OC(C)=O	LAI	-	MM + M/M	RT activity	0.2 µM
Cc1cc(C#N)cc(C(=O)c2cc(Cl)ccc2OCC(=O)Nc2cnc(S(N)(=O)=O)cc2C)c1	HXB2	RT-K103N P225H	HeLa + HELA CD4+	β-galactosidase	<0.01 µM
Cc1cccc(Cn2cc(Cc3ccc(F)cc3F)cc(/C(O)=C/C(=O)C(=O)O)c2=O)c1	-	-	MAGI	-	0.7 µM
COC(=O)c1ccc(OCc2cnc(CS(=O)c3nc4ccccc4[nH]3)c(C)c2)c(OC)c1	Clinical isolates	-	HEK293T	ELISA	3.5 µM
COc1ccc(Cn2cc(Cc3ccccc3)cc(/C(O)=C/C(=O)C(=O)O)c2=O)cc1	-	-	MAGI	-	1.8 µM
Cc1cc(N2CCS(=O)CC2)ccc1NC(=O)COc1ccc(Cl)cc1C(=O)c1cccs1	HXB2	RT-K103N	HeLa + HELA CD4+	β-galactosidase	0.011–0.1 µM
Cc1cn([C@H]2C[C@H](N=[N+]=[N-])[C@@H](COP(=O)(OCCSC(=O)C(C)(C)C)OCCSC(=O)C(C)(C)C)O2)c(=O)[nH]c1=O	LAI	-	MM + M/M	RT activity	0.0001 µM
Cc1cc(OCC(F)(F)F)cnc1CS(=O)c1nc2ccccc2[nH]1	Clinical isolates	-	HEK293T	ELISA	25 µM
Nc1nccc2c1ncn2[C@@H]1O[C@H](CO)[C@@H](O)[C@H]1O	18431 unpaired	-	PBMC	p24	0.0069 µM
O=C(O)C(=O)/C=C(\O)c1cc(Cc2ccccc2F)cn(Cc2ccc(F)cc2)c1=O	-	-	MAGI	-	0.8 µM
Nc1c2ccccc2nc2ccccc12	Latently infected cell	-	ACH2	MTT	>50 µM
Cc1cn([C@H]2C[C@H](N=[N+]=[N-])[C@@H](COP(=O)(O)OCCS[C@@H]3O[C@H](CO)[C@@H](O)[C@H](O)[C@H]3O)O2)c(=O)[nH]c1=O	LAI	-	MM + M/M	RT activity	0.5 µM

Again, the opening 3 rows:

structure,strain,mutations,cell line,method,result
C[C@@H]1CCO[C@H]2Cn3cc(C(=O)NCc4ccc(F)cc4F)c(=O)c(O)c3C(=O)N12,-,L74M/V75I,TZM-bl,luciferase / luminescence,0.0012 µM
Cc1cc(S(N)(=O)=O)ccc1NC(=O)COc1ccc(Cl)cc1C(=O)c1cccc(C#N)c1,HXB2,RT-V106I,HeLa + HELA CD4+,β-galactosidase,<0.01 µM
O=C(O)C(O)c1ccccc1,X4 clinical isolate,-,CD4+ T-CELLS + CD4,p24,<1 µg/mL

Blank or dashed fields: not listed here. Lines come from different laboratories, so protocols vary. ECn is the concentration giving n% inhibition of infection, replication or growth.